Results on 7 molecules are retold here after ChEMBL document CHEMBL3797190, “Development of 3,5-Dinitrobenzylsulfanyl-1,3,4-oxadiazoles and Thiadiazoles as Selective Antitubercular Agents Active Against Replicating and Nonreplicating Mycobacterium tuberculosis” (J Med Chem, 2016).

Values after ≈ are worked out from the molar mass of the structure shown. Where only a bound is given, the exact number is not on record here.

The test system of assay [1] is Mycobacterium avium. The assay can be described thus: Antimycobacterial activity against Mycobacterium avium CNCTC My 330/88 after 14 days by microdilution method. It is filed as functional. (Dilution methods test growth across graded concentrations, often in twofold steps.)
In assay [2] the test system is Mycobacterium avium. Briefly: Antimycobacterial activity against Mycobacterium avium CNCTC My 330/88 after 21 days by microdilution method. It is filed as functional.
In assay [3] the test system is Mycobacterium tuberculosis. The assay can be described thus: Antimycobacterial activity against multi drug resistant Mycobacterium tuberculosis 9449/2007 after 14 days by microdilution method. It is filed as functional.
Assay [4] relates to Mycobacterium tuberculosis. Briefly: Antimycobacterial activity against multi drug resistant Mycobacterium tuberculosis 8666/2010 after 14 days by microdilution method. The class given is functional.
Assay [5] concerns Mycobacterium tuberculosis. Briefly: Antimycobacterial activity against multi drug resistant Mycobacterium tuberculosis Praha 1 after 14 days by microdilution method. It is filed as functional.
In assay [6] the test system is Mycobacterium tuberculosis. The assay can be described thus: Antimycobacterial activity against multi drug resistant Mycobacterium tuberculosis Praha 131 after 14 days by microdilution method. It is filed as functional.
Assay [7] relates to Mycobacterium tuberculosis. The note with it: 234/2005.
The subject of assay [8] is Mycobacterium tuberculosis. The note with it: Praha 4.

Consider `O=[N+]([O-])c1cccc(-c2nnc(SCc3cc([N+](=O)[O-])cc([N+](=O)[O-])c3)o2)c1`, for which the MIC>99 in the assay with Mycobacterium avium [1] and in the assay with Mycobacterium avium [2] was 16 µM (≈ 6.45 µg/mL) in each case.

For the molecule `O=[N+]([O-])c1ccc(-c2nnc(SCc3ccc([N+](=O)[O-])cc3[N+](=O)[O-])o2)cc1`, the MIC>99 with Mycobacterium avium [1] and against Mycobacterium avium [2] was over 125 µM throughout.

For the molecule `O=[N+]([O-])c1ccc(-c2nnc(SCc3cc([N+](=O)[O-])cc([N+](=O)[O-])c3)s2)cc1`, the MIC>99 in the assay on Mycobacterium avium [1] was over 16 µM; against Mycobacterium avium [2] it was over 16 µM; in assay [3] it was 0.06 µM (≈ 0.0252 µg/mL); in assay [4], under 0.03 µM; in assay [5], 0.06 µM (≈ 0.0252 µg/mL); in assay [6], 0.06 µM (≈ 0.0252 µg/mL). Further, the MIC>99 in assay [7] and in assay [8] was 0.06 µM (≈ 0.0252 µg/mL) throughout.

As for `O=[N+]([O-])c1ccc(-c2nnc(SCc3cc([N+](=O)[O-])cc([N+](=O)[O-])c3)o2)cc1`, the MIC>99 in the assay on Mycobacterium avium [1] was over 125 µM; against Mycobacterium avium [2], over 125 µM; in assay [3], 0.06 µM (≈ 0.0242 µg/mL); in assay [4] it was 0.06 µM (≈ 0.0242 µg/mL); in assay [5] it was 0.06 µM (≈ 0.0242 µg/mL); in assay [6], 0.06 µM (≈ 0.0242 µg/mL). Further, the MIC>99 in assay [7] and in assay [8] was 0.06 µM (≈ 0.0242 µg/mL) throughout.

Regarding `O=[N+]([O-])c1ccc(-c2nnc(SCc3ccc([N+](=O)[O-])cc3[N+](=O)[O-])s2)cc1`, the MIC>99 in the assay on Mycobacterium avium [1] and against Mycobacterium avium [2] was 250 µM (≈ 105 µg/mL) throughout.

As to `O=[N+]([O-])c1cccc(-c2nnc(SCc3cc([N+](=O)[O-])cc([N+](=O)[O-])c3)s2)c1`, the MIC>99 against Mycobacterium avium [1] and in the assay on Mycobacterium avium [2] was over 16 µM in each case.

Take `O=[N+]([O-])c1cccc(-c2nnc(SCc3ccc([N+](=O)[O-])cc3[N+](=O)[O-])o2)c1`: the MIC>99 in the assay on Mycobacterium avium [1] and in the assay on Mycobacterium avium [2] was 32 µM (≈ 12.9 µg/mL) throughout.
